Results of unrelated studies side by side (data: NIAID ChemDB).

Shared fields: tests in culture; agent: Cryptosporidium parvum; measure: inhibition

An empty or dashed field is not shown. Percent inhibition refers to the dose given; in toxicity tests it is the harm to the cells. Rows are shuffled and stem from different studies.

smiles | tested at | strain | cells | read by | result
Nc1ccc2c(Sc3ccc([N+](=O)[O-])cc3)c3ccccc3nc2c1 | 10 µg/mL | - | - | - | 26%
CC(=O)Oc1cccc2c1C(=O)c1c(cnn1C)C2=O | 25 µM | - | - | - | 100%
NC[C@@H]1O[C@H](O[C@H]2[C@@H](O)[C@H](O[C@@H]3[C@@H](O)[C@H](N)C[C@H](N)[C@H]3O[C@H]3O[C@H](CO)[C@@H](O)[C@H](O)[C@H]3N)O[C@@H]2CO)[C@H](N)[C@@H](O)[C@@H]1O | 500 µg/mL | - | MDBK | cell count | 71.9%
Cn1cc2c(n1)C(=O)c1cc3ccccc3c(O)c1C2=O | 50 µM | - | - | - | <10%
O=C(c1ccccc1)c1oc2cc(O)cc(O)c2c1O | 50 µM | - | - | - | 10%
Cc1cc(O)c2c(c1Cl)C(=O)c1cn[nH]c1C2=O | 50 µM | - | - | - | <10%
NC[C@@H]1O[C@H](O[C@H]2[C@@H](O)[C@H](O[C@@H]3[C@@H](O)[C@H](N)C[C@H](N)[C@H]3O[C@H]3O[C@H](CO)[C@@H](O)[C@H](O)[C@H]3N)O[C@@H]2CO)[C@H](N)[C@@H](O)[C@@H]1O | 50 µg/mL | IOWA | MDCK | luminescence | 5.8%
CC[C@H]1OC(=O)[C@H](C)[C@@H](O[C@H]2C[C@@](C)(OC)[C@@H](O)[C@H](C)O2)[C@H](C)[C@@H](O[C@@H]2O[C@H](C)C[C@H](N(C)C)[C@H]2O)[C@](C)(O)C[C@@H](C)CN(C)[C@H](C)[C@@H](O)[C@]1(C)O | 2 µg/mL | - | A549 | - | 13%
COc1cc(/C=C2\Oc3cc(O)cc(O[C@@H]4O[C@H](CO)[C@@H](O)[C@H](O)[C@H]4O)c3C2=O)cc(OC)c1OC(C)=O | 50 µM | - | - | - | 10%
NC[C@@H]1O[C@H](O[C@H]2[C@@H](O)[C@H](O[C@@H]3[C@@H](O)[C@H](N)C[C@H](N)[C@H]3O[C@H]3O[C@H](CO)[C@@H](O)[C@H](O)[C@H]3N)O[C@@H]2CO)[C@H](N)[C@@H](O)[C@@H]1O | 25 µM | - | - | - | <10%
CCN(CC)CCSc1c2ccccc2nc2cc(N)ccc12 | 50 µg/mL | - | - | - | 48%
O=C1c2cn[nH]c2C(=O)c2c(O)ccc(O)c21 | 10 µM | - | - | - | 20%
COc1cc(/C=C2\Oc3cc(O)cc(O)c3C2=O)cc(OC)c1O | 25 µM | - | - | - | 36%
COc1cccc2c1C(=O)c1cnn(C)c1C2=O | 100 µM | - | - | - | <10%
COc1cc(/C=C/C=C\c2ccccc2)oc(=O)c1C | 10 µM | - | - | - | 0%
CCN(CC)CCSc1c2ccccc2nc2cc(Cl)ccc12 | 50 µg/mL | - | - | - | 71%
O=C1c2ccccc2C(=O)c2[nH]ncc21 | 100 µM | - | - | - | <10%
O=C1/C(=C/c2cccc(O)c2)Oc2cc(O)ccc21 | 10 µM | - | - | - | 14%
Nc1ccc2c(SCc3ccc([N+](=O)[O-])cc3)c3ccccc3nc2c1 | 10 µg/mL | - | - | - | 42%
COc1c2c(c(O)c3ccccc13)C(=O)c1cnn(C)c1C2=O | 10 µM | - | - | - | 64%
COc1cc(/C=C/C=C\c2ccc3c(c2)OCO3)oc(=O)c1 | 50 µM | - | - | - | 0%
CC(=O)Oc1ccccc1C(=O)Nc1ncc([N+](=O)[O-])s1 | 2 µg/mL | - | A549 | - | 41%
CCN(CC)CCSc1c2ccccc2nc2ccccc12 | 50 µg/mL | - | - | - | 15%
COc1ccc(/C=C\C=C\c2cc(OC)cc(=O)o2)cc1 | 25 µM | - | - | - | 11%

Repeating the final 2 entries:

| smiles | tested at | strain | cells | read by | result |
|---|---|---|---|---|---|
| CCN(CC)CCSc1c2ccccc2nc2ccccc12 | 50 µg/mL | - | - | - | 15% |
| COc1ccc(/C=C\C=C\c2cc(OC)cc(=O)o2)cc1 | 25 µM | - | - | - | 11% |